Experimental findings from publication PMC3006207, “Phosphorylation-Dependent Protein Interaction with Trypanosoma brucei 14-3-3 Proteins that Display Atypical Target Recognition” (PLoS ONE, 2010) are described below.

The target in the test is T1, GST-14-3-3ζ (human 14-3-3ζ) (human, UniProt P63104 1-245).
T1 construct: human 14-3-3 zeta
T1 sequence (looked up): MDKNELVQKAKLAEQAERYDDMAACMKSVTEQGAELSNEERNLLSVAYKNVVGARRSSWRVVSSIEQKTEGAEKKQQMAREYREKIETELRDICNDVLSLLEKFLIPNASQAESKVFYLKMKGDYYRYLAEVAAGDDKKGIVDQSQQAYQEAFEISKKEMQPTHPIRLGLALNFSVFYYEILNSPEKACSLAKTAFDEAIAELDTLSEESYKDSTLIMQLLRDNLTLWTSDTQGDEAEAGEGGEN
The experiment in a line: far-Western, overlay or dot blot. The note with it: both partners purified.

B1: synthetic phosphopeptide MGGGLTRSRpSL derived from PP2c-W (peptide)
peptide: MGGGLTRSRSL
modifications: biotinylated; phosphoserine (residue 10 of the peptide, S744 of PP2c)
notes: source: synthetic peptide (bought: Scrum, Japan)
With B1, the binding result was “binds”.

B2: synthetic phosphopeptide MGGGHVSGLKRRRpSV derived from p31-SAP (peptide)
peptide: MGGGHVSGLKRRRSV
modifications: biotinylated; phosphoserine (residue 14 of the peptide, S286 of p31-SAP)
notes: as for B1
For the molecule B2, the binding result was “binds”.
